Results of unrelated studies side by side (data: NIAID ChemDB).

All rows: growth or infection tests; agent: HIV-1; strain or isolate: IIIB; cells: C8166; method: syncytia / visual reading; measure: EC50

Lines come from different laboratories, so protocols vary. ECn: concentration that inhibits the pathogen or its effect by n%.

smiles,value
COc1ccc2c(c1)CCCN2CCC(=O)N1CCN(c2ccccc2Cl)CC1,11.04 µg/mL
Cc1nc2ccccc2n(CC(=O)N/N=C/c2ccc([N+](=O)[O-])cc2)c1=O,70.83 µM
C=C(C)[C@@]1(OC(=O)c2ccccc2)[C@H](OC(C)=O)[C@@H]2[C@H](OC(C)=O)[C@@]3(C)O[C@@]4([C@@H]3O)[C@@H](OC(=O)c3ccccc3)[C@@H](C)C[C@H]4[C@@]2(O)[C@H](C)[C@@H]1OC(C)=O,0.09509 µM
COc1ccc2c(c1)CCCN2CCC(=O)N1CCN(c2ccc(F)cc2)CC1,19.43 µg/mL
Cc1ccccc1NC(=S)Nn1c(-c2ccc(Br)cc2)c[nH]c1=S,3.39 µM
Cc1cn([C@H]2C[C@H](N=[N+]=[N-])[C@@H](CO)O2)c(=O)[nH]c1=O,0.02108 µM
Cc1ccc(-c2c[nH]c(=S)n2NC(=S)Nc2ccc(Br)cc2)cc1,3.39 µM
COc1ccc2c(c1)CCCN2CCC(=O)N1CCN(c2ccc([N+](=O)[O-])cc2)CC1,5.45 µg/mL
COc1ccc(-c2c[nH]c(=S)n2NC(=S)Nc2ccc(Br)cc2)cc1,2.2 µM
C=C(C)[C@@]1(O)[C@H](O)[C@@H]2[C@@H]3O[C@]3(CO)[C@@H](O)[C@]3(O)C(=O)C(C)=C[C@H]3[C@@]2(O)[C@H](C)[C@H]1OC(C)=O,2.46 µM
COc1cc([C@H](O)[C@H](CO)Oc2c(O)cc(C(=O)CCO)cc2O)ccc1O,2.16 µg/mL
S=C(Nc1cccc2ccccc12)Nn1c(-c2ccc(Cl)cc2)c[nH]c1=S,3.43 µM
COc1ccc2c(c1)CCCN2CCC(=O)N1CCN(c2ccccc2F)CC1,17.89 µg/mL
C=C(C)[C@@]12OC3(c4ccccc4)O[C@@H]1[C@@H]1[C@H](O)[C@](O)(CO)[C@@H](O)[C@]4(O)C(=O)[C@@H](C)C=C4[C@@]1(O3)[C@H](C)[C@H]2OC(=O)c1ccccc1,3.58 µM
S=C(Nc1cccc2ccccc12)Nn1c(-c2ccc(Br)cc2)c[nH]c1=S,0.57 µM
COc1ccc2c(c1)CCCN2CCC(=O)N1CCN(c2cccc(Cl)c2)CC1,18.38 µg/mL
C=C(C)[C@@]12OC3(c4ccccc4)O[C@@H]1[C@@H]1[C@H](O)[C@](O)(CO)[C@@H](O)[C@]4(O)C(=O)C(C)=C[C@H]4[C@@]1(O3)[C@H](C)[C@H]2OC(=O)c1ccccc1,5.36 µM
COc1cccc(N2CCN(C(=O)CCN3CCCc4cc(OC)ccc43)CC2)c1,20.43 µg/mL
COc1ccc(-c2c[nH]c(=S)n2NC(=S)Nc2ccc(C)cc2C)cc1,15.09 µM
C=C(C)[C@@]1(OC(=O)c2ccccc2)[C@H](OC(C)=O)[C@@H]2[C@H](OC(C)=O)[C@@]3(C)O[C@@]4([C@@H]3OC(C)=O)[C@@H](OC(=O)c3ccccc3)[C@@H](C)C[C@H]4[C@@]2(O)[C@H](C)[C@@H]1OC(C)=O,0.184 µM
COc1ccc2c(c1)CCCN2CCC(=O)N1CCN(c2cccc(Cl)c2Cl)CC1,17.4 µg/mL

A second listing of 2 rows from above:

| smiles | value |
|---|---|
| COc1cc([C@H](O)[C@H](CO)Oc2c(O)cc(C(=O)CCO)cc2O)ccc1O | 2.16 µg/mL |
| Cc1nc2ccccc2n(CC(=O)N/N=C/c2ccc([N+](=O)[O-])cc2)c1=O | 70.83 µM |